# Library screen at single concentrations

Measurements from “University of Dundee, Small-Polar-MMV Screening Library” (2021), ChEMBL document CHEMBL3988442.

Mtb glucose medium: 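Phenotypic screen: M. tuberculosis growth, glucose 7H9 medium, 3 days; the read-out is not stated. Concentration: 500 µM. Direction is inferred from retests: higher values go with more growth inhibition. About 18,000 compounds were tested under these conditions; 7.9% (about 1,400) showed 50% or more at least once.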
Mtb cholesterol medium: 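Whole-cell growth test on Mycobacterium tuberculosis, read after 4 days in a medium based on cholesterol and the lipid DPPC; the read-out is not stated. Tested at 500 µM. Direction is inferred from retests: higher values go with more growth inhibition. About 18,000 compounds were tested under these conditions; 5% (about 900) showed 50% or more at least once.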

Results are given as percent effect. How 0% and 100% were set is not recorded. Most values in the screen are low, and negative values occur. This is part of a subset picked to be rich in strong results. A dash means the value is not listed here; it may have been measured.

| structure | Mtb glucose medium | Mtb cholesterol medium |
|---|---|---|
| `CC(N)c1nnc(-c2cccc(F)c2)s1` (centres unmarked) | -6.545% | - |
| `O=C(CN1CCC(O)CC1)Nc1ccc(Br)cn1` | - | -10.89% |
| `NC(=O)COc1cccc(CN2CCC(F)CC2)c1` | 50.09% | - |
| `O=C(CNc1ncnc2sccc12)N1CCCC1` | -8.964% | - |
| `CC(=O)c1ccc(S(C)(=O)=O)c(N2CCC(C)(C)C2)c1` | 83.57% | 79.09% |
| `CCn1cnnc1CNC(=O)C1CCC(=O)N1` (centres unmarked) | 5.739% | - |
| `COCCOc1cccc(CNCCNS(C)(=O)=O)c1` | 17.03% | - |
| `CNC(=O)C1CN(c2ccc(F)cn2)CCO1` (centres unmarked) | 22.48% | - |
| `CCOCC1CCN(S(C)(=O)=O)CC1` | - | 7.336% |
| `O=C1C(N2CCNCC2)CCCN1CC(F)(F)F` (centres unmarked) | -4.578% | - |
| `CCc1nc(C(C)N)n[nH]1` (centres unmarked) | 14.44% | - |
| `CCN(CC1CCOC1)C(=O)C(C)(C)C` (centres unmarked) | 4.519% | - |
| `NCC1Cc2ccccc21` (centres unmarked) | 72.52% | 62.61% |
| `Cc1ccc2c(c1)OC(C)C(=O)N2` (centres unmarked) | 19.24% | 10.89% |
| `COc1cccc(OC2CN(C(=O)[C@@H](N)CO)C2)c1` | 2.368% | - |
| `CCc1cccc(NC(N)=O)c1` | 12.09% | - |
| `CN1C(=O)[C@H]2CN(Cc3ccc(Cl)cc3)C[C@H]2C1=O` | 39.14% | 9.989% |
| `COc1ccc(CN2CCCC(N(C)C)CC2)cn1` (centres unmarked) | - | -26.44% |
| `CS(=O)(=O)NC1CCNC1` (centres unmarked) | - | -2.541% |
| `COc1ccccc1CCNC(=O)CC1CCCO1` (centres unmarked) | 49.32% | - |
| `Cn1cc(NC(=O)CC(C)(C)C)ccc1=O` | -6.121% | - |
| `Cc1ccoc1C(=O)Nc1cccc(CO)n1` | -12.83% | - |
| `O=C(c1cnsn1)N1CCCSc2ccc(F)cc21` | 78.03% | -1.232% |
| `CCO[C@H]1CN(CCn2cc(Cl)cn2)C[C@@H]1O` | 20.54% | - |
| `Cc1ccsc1C(C)NCCS(=O)(=O)N1CCOCC1` (centres unmarked) | 38.69% | - |
| `CCOCCC(=O)N1CCCC(O)(C(F)(F)F)C1` (centres unmarked) | - | -6.424% |
| `CCc1n[nH]c(SCC(=O)NCCSc2cnn[nH]2)n1` | 21.19% | 0.05548% |
| `CC1CCN(C(=O)C2CCC(CN)CC2)CC1` (centres unmarked) | - | 9.722% |
| `FC(F)(F)c1cccnc1NCC1CCCO1` (centres unmarked) | - | 1.804% |
| `CCC1CN(C2=NS(=O)(=O)c3ccccc32)CCO1` (centres unmarked) | - | 8.337% |
| `COCCNc1nc(-c2ccc(O)cc2O)cs1` | 49.13% | 36.25% |
| `COc1ccc(C#N)cc1CN1CCNC(=O)CC1` | - | -8.317% |
| `Cc1ncccc1NS(=O)(=O)CCc1ccccc1` | 2.43% | -2.329% |
| `Cn1ccsc1=NC(=O)c1ccc(OCC(N)=O)cc1` | - | 55.56% |
| `CN1C(=O)c2ccc(C(=O)Nc3nccs3)cc2C1=O` | - | -10.4% |
| `Cc1ccnc(NS(=O)(=O)N2CCCCCC2)c1` | 6.369% | - |
| `CCC(N)C(=O)N1CCc2ccc(OC)cc2C1` (centres unmarked) | 19.92% | - |
| `CNC(=O)C1CN(C(=O)Nc2cccc(C)c2)CCO1` (centres unmarked) | 4.856% | - |
| `FC(F)(F)c1cccc(NCc2cccnc2)n1` | 84.2% | 86.25% |
| `Cc1ncc(C(=O)NCCN2CCCC2)s1` | -4.466% | - |
| `COc1ccc(OCCN2CCC(C(N)=O)CC2)cc1` | 0.1591% | -2.766% |
| `CCC(=O)NC1CCCc2occc21` (centres unmarked) | 12.08% | -1.093% |
| `CCN1CC(C(N)=O)CC1=O` (centres unmarked) | - | 14.52% |
| `CSC1(C)C(=O)Nc2c(C#N)cccc21` (centres unmarked) | 9.526% | - |
| `CCN1CCC(NC(=O)c2ccc3c(c2)OCO3)CC1` | - | -7.435% |
| `COc1c(F)cc(CN2CC[C@@H](N)[C@H](O)C2)cc1Cl` | 57.68% | 26.56% |
| `CCS(=O)(=O)N1CC(C(=O)NC)Oc2ccccc21` (centres unmarked) | - | -17.93% |
| `COc1cccc(CN)c1C` | 6.256% | - |
| `Cc1cc(=O)[nH]c(CCNC(=O)[C@H]2CC[C@@H](N)C2)n1` | -5.914% | - |
| `CCCOc1cc(CNC(=O)c2nccn2C)ccn1` | 60.31% | 63.92% |
| `COc1ccc(Cl)cc1C(O)CN` (centres unmarked) | 20.47% | - |
| `CC(N)C(=O)N1CCC(Oc2ccccc2Cl)CC1` (centres unmarked) | 74.98% | 57.68% |
| `CC(C)(C)Sc1cc(CN)ccn1` | 5.904% | - |
| `Cc1noc(CNC(CCO)C(C)C)n1` (centres unmarked) | - | 64.47% |
| `CN(Cc1cnn(C)c1)C(=O)C1CCNCC1` | 8.21% | - |
| `COc1cc(CCN)cc(OC)c1O` | 32.83% | 10.85% |
| `CC(C)OCCN1CCC(N)CC1` | 4.998% | - |
| `NC(=O)CCN1CCCC(CO)(CC2CC2)C1` (centres unmarked) | -4.669% | - |

Repeated from the top, 4 entries:

{"structure": "CC(N)c1nnc(-c2cccc(F)c2)s1", "stereo": "centres unmarked", "Mtb glucose medium": -6.545}
{"structure": "O=C(CN1CCC(O)CC1)Nc1ccc(Br)cn1", "Mtb cholesterol medium": -10.89}
{"structure": "NC(=O)COc1cccc(CN2CCC(F)CC2)c1", "Mtb glucose medium": 50.09}
{"structure": "O=C(CNc1ncnc2sccc12)N1CCCC1", "Mtb glucose medium": -8.964}